# Laboratory results reported in publication PMC7038234, “Screening of Natural Extracts for Inhibitors against Japanese Encephalitis Virus Infection” (Antimicrobial Agents and Chemotherapy, 2020).
# Test system: JEV strain AT31
# Conditions: Primary screening of 1034 compounds in the natural extracts library
row,Compound,Inhibition (%)
1,C=C1C(=O)O[C@@H]2/C=C(\C)[C@@H](OC(C)=O)C/C=C(\COC(C)=O)C[C@@H](OC(=O)/C(C)=C/CO)[C@@H]12 [Eupalinolide A],-20.4277
2,Cc1cc(O)c(C(=O)CCC(C)C)c(=O)o1 [Pogostone],30.1349
3,CCC/C=C1\OC(=O)C2=C[C@H]3CC[C@]21[C@]1(OC(=O)C2=C1CCC=C2)[C@@H]3CCC [Tokinolide B],-27.7272
4,Mulberroside C,-17.6148
5,C[C@@H]1O[C@@H](O[C@H]2[C@H](O[C@H]3CC[C@@]4(C)[C@@H](CC[C@]5(C)[C@@H]4CC=C4[C@@H]6CC(C)(C)CC[C@]6(C(=O)O[C@@H]6O[C@H](CO[C@@H]7O[C@H](CO)[C@@H](O[C@@H]8O[C@@H](C)[C@H](O)[C@@H](O)[C@H]8O)[C@H](O)[C@H]7O)[C@@H](O)[C@H](O)[C@H]6O)CC[C@]45C)[C@]3(C)CO)OC[C@H](O)[C@@H]2O)[C@H](O)[C@H](O)[C@H]1O [Hederacoside C],9.195
6,CC(=O)OC[C@@]12CC[C@@H](C)[C@](C)(CCC3=CC(=O)OC3)[C@H]1C[C@H](O)C=C2CO [Blinin],12.5663
7,Alisol B 23-acetate,76.2599
8,COc1cc(CCc2cc(OC)c(O)c(OC)c2)ccc1O [Dendrophenol],22.5499
9,CCN1C[C@@]2(COC)[C@H]3[C@@H](OC)[C@H]4C1[C@]3([C@@H](OC)C[C@H]2OC(C)=O)[C@@H]1C[C@@]2(O)[C@H](OC(=O)c3ccccc3)[C@@H]1[C@]4(OC(C)=O)[C@@H](O)[C@@H]2OC [Acetylaconitine],17.0568
10,CC(=O)O[C@@]12CO[C@@H]1C[C@H](O)[C@@]1(C)C(=O)[C@H](O)C3=C(C)[C@@H](OC(=O)[C@H](O)[C@@H](NC(=O)c4ccccc4)c4ccccc4)C[C@@](O)([C@@H](OC(=O)c4ccccc4)[C@H]21)C3(C)C [Deacetyltaxol],39.9853
11,O=Cc1ccc(CO)o1 [5-Hydroxymethylfurfural],8.015
12,C[C@H]1[C@@H](O)CC[C@@H]2[C@]1(C)CC[C@H]1[C@@]2(C)CC[C@@]2(C)[C@@H]3CC(C)(C)CC[C@]3(C)CC[C@]12C [Friedelan-3beta-ol],26.256
13,O=c1cc(-c2ccccc2)oc2cc(O[C@@H]3O[C@H](CO)[C@@H](O)[C@H](O)[C@H]3O)c(O)c(O)c12 [Oroxin A],29.4273
14,C[C@@H]1O[C@@H](O[C@H]2[C@H](O[C@H]3CC[C@@]4(C)[C@@H](CC[C@]5(C)[C@@H]4CC=C4[C@@H]6CC(C)(C)CC[C@]6(C(=O)O[C@@H]6O[C@H](CO[C@@H]7O[C@H](CO)[C@@H](O)[C@H](O)[C@H]7O)[C@@H](O)[C@H](O)[C@H]6O)CC[C@]45C)[C@]3(C)CO)OC[C@H](O)[C@@H]2O)[C@H](O)[C@H](O[C@@H]2O[C@H](CO)[C@@H](O)[C@H](O)[C@H]2O)[C@H]1O [Macranthoidin A],-3.651
15,Pseudoginsenoside F11,9.2512
16,COc1cc2ccc(=O)oc2c(O[C@@H]2O[C@H](CO)[C@@H](O)[C@H](O)[C@H]2O)c1O [Fraxin],53.3023
17,CN1CCC[C@H]1c1cccnc1 [L-Nicotine],-12.2927
18,CC/C=C\C/C=C\C/C=C\CCCCCCCC(=O)O [α-Linolenic acid],13.9313
19,C=C1C(=O)O[C@@H]2/C=C(\C)CC/C=C(\C)CC[C@@H]12 [Costundide],91.7561
20,CCCCCC/C=C\CCCCCCCc1cccc(O)c1C(=O)O [Ginkgolic Acid C15:1],98.6651
21,COc1cc(OC)c(OC)cc1C=O [Asarylaldehyde],22.225
22,O=C(/C=C/c1ccc(O)cc1)c1c(O)cc(O)cc1O [Naringein chalcone],-2.063

# Same assay, conditions: primary screening of 1034 compounds in the natural extracts library; red numbers = obvious cytotoxicity, blue numbers = insoluble in DMSO (colours not visible)
row,Compound,Inhibition (%)
1,CC(C)=CCc1c(-c2ccc(O)cc2O)oc2c([C@H]3C=C(C)C[C@@H](c4ccc(O)cc4O)[C@@H]3C(=O)c3ccc(O)cc3O)c(O)cc(O)c2c1=O [kuwanon G],76.3133
